For the assay, the system named is Botrytis cinerea (B05.10). The assay can be described thus: Resazurin antifungal assay of 23 alpha-factor peptides (dimers, hybrids) towards Botrytis (Example 15, Table 6). The assay is classed as cell-based. To be noted: % inhibition of fungal growth. The procedure:
The antifungal activity of […] alpha-factor peptide variants towards Botrytis was tested. Experimental design:
Peptides corresponding to SEQ ID NO: 261-264 and 401-420 were chemically synthesized using the solid-phase synthesis method and resuspended in water to a stock solution of 1 mM. The stock solution was aliquoted in cryovials and stored at −80° C.
The Botrytis cinerea culture (B05.10) isolate was acquired from the Centraalbureau voor Schimmelcultures, the Netherlands. The Botrytis fungus was propagated on 0.5% V8 agar plates (200 ml V8 Juice, 3 g CaCO3, 15 g agar, 800-ml millipore water) at 20° C., in a 12 h photoperiod for 21 days.
Fungal conidia were harvested by scraping a Botrytis plate flooded with 1 ml water with 0.1% Tween 80 solution. Conidia were then collected in a 50 ml falcon tube by passing the solution through a 40 micron filter. The solution was then centrifuged at 6000 rpm and the pellet was resuspended in 1 ml of 20% glycerol. The conidia concentration of the resulting solution was counted using a hemocytometer. […]
Peptides were tested for activity against Botrytis, using the resazurin assay. […] Fluorescence was measured at 570/620 nm after 4 h of incubation with resazurin.
Growth inhibition was calculated by subtracting the fluorescence values of conidia only wells from sample wells and depicted as % inhibition of fungal growth. […]

As usually defined, the Inhibition is the percentage by which the read-out fell short of the control. A higher Inhibition goes with a response far below the control. Regarding `CSCC[C@H](NC(=O)[C@@H]1CCCN1C(=O)[C@H](CCC(N)=O)NC(=O)CNC(=O)[C@@H]1CCCN1C(=O)[C@H](CCCCN)NC(=O)[C@H](CC(C)C)NC(=O)[C@H](CCC(N)=O)NC(=O)[C@H](CC(C)C)NC(=O)[C@H](Cc1c[nH]c2ccccc12)NC(=O)[C@H](Cc1c[nH]cn1)NC(=O)[C@H](Cc1c[nH]c2ccccc12)NC(=O)[C@H](CCCNC(=N)N)NC(=O)[C@H](CCCNC(=N)N)NC(=O)[C@H](CCCNC(=N)N)NC(=O)[C@H](CCCNC(=N)N)NC(=O)[C@H](CCCNC(=N)N)NC(=O)[C@H](CCCNC(=N)N)NC(=O)[C@H](CCCNC(=N)N)NC(=O)[C@@H](N)CCCNC(=N)N)C(=O)N[C@@H](Cc1ccc(O)cc1)C(=O)O` [compound 419], the “Inhibition at 50 μM” value (peptide 50 μM) amounted to 100%. Moreover, the “Inhibition at 100 μM” value (peptide 100 μM) was 100%.

The values above are taken from patent US20250382332A1, “NOVEL ALPHA-FACTOR BASED PEPTIDES WITH ANTIFUNGAL ACTIVITY” (INVAIO SCIENCES, INC., priority 2024, published 2025).
